The source of these data is patent US10701928B2, “Method for animal tissue material disinfection and sterilization and corresponding animal tissue soak solution” (Beijing Ruijian Gaoke Biotechnology Co., Ltd., priority 2013, dated 2020).

Structures are written as SMILES. Some compounds share one wording; it may come from a single statement.

This data set can be described thus: Differential scanning calorimetry of the treated tissue matrix. Type of data set: physicochemical. To be noted: Example 5: fresh porcine hide about 1 mm, treated 1-2 hours, washed with phosphate buffer. In general terms: In DSC, transitions show as peaks or steps in heat flow.
On to `OCl` [0.2% sodium hypochlorite, sodium hypochlorite], for which the “damage on the tissue matrix (DSC)” value is reported as “different degrees of damage on the tissue matrix”.
Regarding `[Na+].[OH-]` [1N sodium hydroxide, sodium hydroxide], the “damage on the tissue matrix (DSC)” value is on record as “different degrees of damage on the tissue matrix”.
Consider `OO` [3.0% hydrogen peroxide, hydrogen peroxide], for which the “damage on the tissue matrix (DSC)” value is “different degrees of damage on the tissue matrix”.
